Pooled drug test results. Numbers come from NIAID ChemDB, via PubChem.

Shared fields: tests in culture; species: HIV-1

An empty or dashed field is not shown. a–b is a range or a potency band. Lines come from different laboratories, so protocols vary. ECn is the concentration giving n% inhibition of infection, replication or growth.

SMILES	measure	cell line	strain or isolate	mutations	method	result
CN1CCn2c(nc(C(=O)NCc3ccc(F)cc3)c(O)c2=O)C1CN(C)S(C)(=O)=O	EC95	MT-4			p24	1–10 µM
COC(=O)Cn1c(=O)c(C)cn([C@H]2C=C[C@@H](CO[Si](C)(C)C(C)(C)C)O2)c1=O	EC50	MT-4	IIIB		cytopathic effect / trypan blue	>10 µM
Cn1cc(NC(=O)Nc2cc(C(=O)Nc3cc(C(=O)Nc4ccc(S(=O)(=O)O)c5cc(S(=O)(=O)O)ccc45)n(C)c3)n(C)c2)cc1C(=O)Nc1cc(C(=O)Nc2ccc(S(=O)(=O)O)c3cc(S(=O)(=O)O)ccc23)n(C)c1	EC50	MT-4	DPS-181_		cytopathic effect / XTT	4.8 µM
COC(=O)Oc1ccc(NC(=O)C2=C(C)OCCS2)cc1C(=O)OC(C)C	EC50	CEM	IIIB		syncytia	0.7 µg/mL
CCOc1ccc2nc(NC(=O)NCCc3ccccc3)sc2c1	EC50	MT-4			cytopathic effect / XTT	>100 µg/mL
N#Cc1ccc(NC(=O)c2ccccc2SSc2ccccc2C(=O)Nc2ccc(C#N)cc2)cc1	EC50	CEM			cytopathic effect / XTT	15 µM
COC(=O)c1cc(NC(=O)C2=C(C)OCCS2)ccc1Cl	EC50	CEM	TSAO-resistant (RT E138K)	RT-E138K	syncytia	>10 µg/mL
Cc1cccc(Nn2c(-c3ccccc3)c(C(C)C)[nH]c2=S)c1	EC50	MT-4	IIIB		cytopathic effect / MTT	>42.63 µM
CC1=C(C(=O)Nc2cc(C(=O)OC(C)C)c(F)cc2F)SCCO1	EC50	CEM	PYR-resistant (RT Y181C)	RT-Y181C	syncytia	>10 µg/mL
CC(C)(C)[Si](C)(C)OC[C@H]1O[C@@H](n2cnc3c(=O)n(CC(=O)O)cnc32)[C@H](O)[C@@H]1O[Si](C)(C)C(C)(C)C	EC50	CEM	IIIB		syncytia	≥50 µM
CCCNC(=O)c1ccccc1SSc1ccccc1C(=O)NCCC	EC50	CEM			cytopathic effect / XTT	>19 µM
c1ccc(C2SCc3nc4ncccc4n32)cc1	EC50	CEM	RF		cytopathic effect / XTT	>384 µM
Cc1cc(/C=C/C#N)cc(C)c1Nc1nc(Nc2ccc(C#N)cc2)ncc1C(O)C#Cc1cncn1C	EC50	MT-4	PSI (IIIB)			145 µM
O=C(CCc1ccc(NC(=O)c2ccccc2)cc1)CCc1ccc(O)c(O)c1	EC50	TZM-bl	BaL		luciferase	22.84 µM
CC1(C)c2nc(C(=O)NCc3ccc(F)cc3)c(O)c(=O)n2CCN1Cc1cocn1	EC95	MT-4			p24	<1 µM
Cc1cc(OC(F)(F)c2nc3ccccc3o2)cc(C)c1C	EC50	CEM + CEM-SS	RF		cytopathic effect / XTT	13 µM
COC(O)c1cnc(Nc2ccc(C#N)cc2)nc1Nc1c(C)cc(/C=C/C#N)cc1C	EC50	MT-4	K103N + Y181C			0.01778 µM
Fc1cccc(F)c1C1SCc2nc3ncccc3n21	EC50	CEM	RF		cytopathic effect / XTT	29 µM
Cc1ncn(Nc2cccc(Cl)c2)c1-c1cccc(Br)c1	EC50	MT-4	NL4-3		cytopathic effect / MTT	1.3 µM
O=C(NCCc1ccccc1)C1=Cc2ccncc2CC1	EC50	CEM + CEM-SS	RF		cytopathic effect / XTT	>34 µM
Cc1ccnc(SC(F)(F)c2nc3ccccc3o2)n1	EC50	CEM + CEM-SS	RF		cytopathic effect / XTT	0.0646 µM
CC(C)(C)[Si](C)(C)OC[C@@H]1CC[C@H](n2cnc3c(=O)n(CC(=O)O)cnc32)O1	EC50	MT-4	IIIB		cytopathic effect / trypan blue	>200 µM
C[C@H]1CN2C(=O)c3c(O)c(=O)c(C(=O)NCc4ccc(F)c(Cl)c4F)cn3[C@H]3CCC[C@]32O1	EC50	MT-4	IIIB		luminescence	0.002703 µM
O=C(NCCc1ccccc1)Nc1cnccn1	EC50	MT-4			RT activity	<1 µg/mL
Cc1cc(/C=C/C#N)cc(C)c1Nc1nc(Nc2ccc(C#N)cc2)ncc1C(O)C(C)C	EC50	MT-4	K103N + Y181C			0.575 µM
CCCC1=C(C(=O)Nc2ccc(Cl)c(C(=O)OCC)c2)SCCO1	EC50	CEM	PYR-resistant (RT Y181C)	RT-Y181C	syncytia	>10 µg/mL
COc1ccc(C(=O)Nc2ccc(CCC(=O)/C=C/c3ccc(OC(C)=O)c(OC(C)=O)c3)cc2)cc1	EC50	TZM-bl	BaL		luciferase	18.85 µM
CC(C)CNC(=O)c1ccccc1SSc1ccccc1C(=O)NCC(C)C	EC50	CEM			cytopathic effect / XTT	1.8 µM
Cc1cccc(Nn2c(-c3ccccc3)c(C)[nH]c2=S)c1	EC50	MT-4	NL4-3		cytopathic effect / MTT	2.17 µM
CC(C)(C)c1csc(NC(=O)NCCc2ccccc2)n1	EC50	MT-4			cytopathic effect / XTT	>100 µg/mL
COCCOC(O)c1cnc(Nc2ccc(C#N)cc2)nc1Nc1c(C)cc(/C=C/C#N)cc1C	EC50	MT-4	L100I + K103N			0.02399 µM
O=C(NCCc1ccccc1)Nc1nc(-c2ccc(Cl)cc2)cs1	EC50	MT-4			cytopathic effect / XTT	>100 µg/mL
O=C(NCc1ccc(F)c(Cl)c1F)c1cn2c(c(O)c1=O)C(=O)N1CCC[C@]13COCC[C@H]23	EC50	MT-4	IIIB		luminescence	0.004128 µM
CC1(C)NC(=O)n2c1nc(C(=O)NCc1ccc(F)cc1)c(O)c2=O	EC50	MT-4			p24	<50 µM
Cc1cn([C@@H]2O[C@H](CO[Si](C)(C)C(C)(C)C)[C@@H](O)[C@H]2O[Si](C)(C)C(C)(C)C)c(=O)n(CCCCC(=O)O)c1=O	EC50	CEM	IIIB		syncytia	≥10 µM
CC1=C(C(=O)Nc2cc(Cl)cc(C(=O)OC(C)C)c2)SCCO1	EC50	CEM	TSAO-resistant (RT E138K)	RT-E138K	syncytia	5.5 µg/mL
CCOC(=O)c1ccc(NC(=O)c2ccccc2SSc2ccccc2C(=O)Nc2ccc(C(=O)OCC)cc2)cc1	EC50	CEM			cytopathic effect / XTT	9 µM
CC1=C(C(=O)Nc2ccc(Cl)c(C(=O)OC(C)C)c2)SCCO1	EC50	CEM	PYR-resistant (RT Y181C)	RT-Y181C	syncytia	15 µg/mL
O=C(NCCc1ccccc1)Nc1ccc(F)cc1	EC50	MT-4			cytopathic effect / XTT	>10 µg/mL
O=C(/C=C/c1ccc(O)c(O)c1)CCc1ccc(NC(=O)C2CCCCC2)cc1	EC50	TZM-bl	BaL		luciferase	>50 µM
CCC(O)c1cnc(Nc2ccc(C#N)cc2)nc1Nc1c(C)cc(/C=C/C#N)cc1C	EC50	MT-4	K103N + Y181C			0.09333 µM
Clc1ccccc1C1SCc2nc3ncccc3n21	EC50	CEM	RF		cytopathic effect / XTT	>9.04 µM
CN1CCN(C(=O)CN2CCn3c(nc(C(=O)NCc4ccc(F)cc4)c(O)c3=O)C2(C)C)CC1	EC95	MT-4			p24	<1 µM
CNC(O)c1cnc(Nc2ccc(C#N)cc2)nc1Nc1c(C)cc(/C=C/C#N)cc1C	EC50	MT-4	MDR			1.58 µM
O=C(Nc1ccc(S(=O)(=O)Nc2ncccn2)cc1)c1ccccc1SSc1ccccc1C(=O)Nc1ccc(S(=O)(=O)Nc2ncccn2)cc1	EC50	CEM			cytopathic effect / XTT	12 µM
CC1=C(C(=O)N(C)c2ccc(Cl)c(C(=O)OC(C)C)c2)SCCO1	EC50	CEM	TSAO-resistant (RT E138K)	RT-E138K	syncytia	>10 µg/mL
COc1ccc(C(=O)Nc2ccc(CCC(=O)CCc3ccc(OC(C)=O)c(OC(C)=O)c3)cc2)cc1	EC50	TZM-bl	BaL		luciferase	30.63 µM
COC(=O)CCCCn1c(=O)c(C)cn([C@@H]2O[C@H](CO[Si](C)(C)C(C)(C)C)[C@@H](O)[C@H]2O[Si](C)(C)C(C)(C)C)c1=O	EC50	MT-4	IIIB		cytopathic effect / trypan blue	>10 µM
Cc1nnc(C(C)C)n1C1C[C@H]2CC[C@@H](C1)N2CC[C@H](NC(=O)C1CCC(F)(F)CC1)c1ccccc1	EC50	TZM-bl	BaL		luciferase	0.001 µM
CN1CCn2c(nc(C(=O)NCc3ccc(F)cc3S(C)(=O)=O)c(O)c2=O)C1(C)C	EC50	MT-4			p24	<1 µM
O=C1[C@@H](Cc2ccc(O)cc2)NC(=S)N1c1ccccc1	EC50	MT-4			cytopathic effect / XTT	>10 µg/mL
Cc1cn([C@@H]2O[C@H](COC(=O)C(C)(C)C)[C@@H](O)[C@H]2OC(=O)C(C)(C)C)c(=O)n(CC(=O)O)c1=O	EC50	MT-4	IIIB		cytopathic effect / trypan blue	92 µM
CCCCOC(=O)c1cc(NC(=O)C2=C(C)OCCS2)ccc1Cl	EC50	CEM	PYR-resistant (RT Y181C)	RT-Y181C	syncytia	0.7 µg/mL
Cc1ccnc2c1NC(=O)c1cccnc1N2C1CC1	EC50	HEK293T	94ug114.1.6	N348I	luciferase	584.9 nM
FC(F)(Sc1ncccn1)c1nc2ccccc2o1	EC50	CEM + CEM-SS	CALO(RT-T139I)	RT-T139I	cytopathic effect / XTT	3.2 µM
CCOc1ccccc1CCNC(=S)Nc1nccs1	EC50	MT-4			cytopathic effect / XTT	<1 µg/mL
Cc1cnc(CN2CCn3c(nc(C(=O)NCc4ccc(F)cc4)c(O)c3=O)C2(C)C)o1	EC50	MT-4			p24	<1 µM
CCc1nnc(NC(=O)NCCc2ccccc2)s1	EC50	MT-4			cytopathic effect / XTT	>100 µg/mL
CC1=C(C(=O)Nc2cc(C(=O)OC(C)C)c(Cl)cc2F)SCCO1	EC50	CEM	TIBO-resistant (RT L100I)	RT-L100I	syncytia	>10 µg/mL
Cc1cc(/C=C/C#N)cc(C)c1Nc1nc(Nc2ccc(C#N)cc2)ncc1C(O)n1ccnc1	EC50	MT-4	IIIB			0.00372 µM
Fc1ccccc1C1SCc2nc3ncccc3n21	EC50	CEM	RF		cytopathic effect / XTT	>95.9 µM
Cc1cccc(Nn2c(C)c(C)[nH]c2=S)c1	EC50	MT-4	IIIB		cytopathic effect / MTT	>360 µM
CC(C)Oc1ccccc1CNC(=O)c1ccc2cnccc2n1	EC50	CEM + CEM-SS	IIIB		cytopathic effect / MTT	>31 µM

For reference, 5 entries again:

SMILES	measure	cell line	strain or isolate	mutations	method	result
CCCNC(=O)c1ccccc1SSc1ccccc1C(=O)NCCC	EC50	CEM			cytopathic effect / XTT	>19 µM
CC(C)(C)c1csc(NC(=O)NCCc2ccccc2)n1	EC50	MT-4			cytopathic effect / XTT	>100 µg/mL
CCCCOC(=O)c1cc(NC(=O)C2=C(C)OCCS2)ccc1Cl	EC50	CEM	PYR-resistant (RT Y181C)	RT-Y181C	syncytia	0.7 µg/mL
Cc1cn([C@@H]2O[C@H](CO[Si](C)(C)C(C)(C)C)[C@@H](O)[C@H]2O[Si](C)(C)C(C)(C)C)c(=O)n(CCCCC(=O)O)c1=O	EC50	CEM	IIIB		syncytia	≥10 µM
CN1CCN(C(=O)CN2CCn3c(nc(C(=O)NCc4ccc(F)cc4)c(O)c3=O)C2(C)C)CC1	EC95	MT-4			p24	<1 µM